In paper PMC8085991:

Test system: Nc1nc2c(ncn2[C@@H]2O[C@H](COP(=O)(O)OP(=O)(O)OP(=O)(O)O)[C@@H](O)[C@H]2O)c(=O)[nH]1
Experiment: purified protein
Conditions: 59 nM GST-FlhFBb; GTP 0-100 μM; room temperature

Substance | Km [µM] | Vmax [µmol/min] | kcat [s⁻¹] | kcat/Km [M⁻¹ s⁻¹]
rFlhFBb (BB0270, GST-FlhFBb) (Borreliella burgdorferi B31; K187A) | 5.15 ± 0.86 | 39.4 | 0.0112 | 2170
rFlhFBb (BB0270, GST-FlhFBb) (Borreliella burgdorferi B31; R218G) | 4.99 ± 1.38 | 41 | 0.0117 | 2340
